Test results from patent US20030180797A1, “Identification of ligands for a receptor family and related methods” (priority 2002, published 2003).

Chains of the proteins cited; added tags and fusions are not shown.
UniProt P04036, whole entry: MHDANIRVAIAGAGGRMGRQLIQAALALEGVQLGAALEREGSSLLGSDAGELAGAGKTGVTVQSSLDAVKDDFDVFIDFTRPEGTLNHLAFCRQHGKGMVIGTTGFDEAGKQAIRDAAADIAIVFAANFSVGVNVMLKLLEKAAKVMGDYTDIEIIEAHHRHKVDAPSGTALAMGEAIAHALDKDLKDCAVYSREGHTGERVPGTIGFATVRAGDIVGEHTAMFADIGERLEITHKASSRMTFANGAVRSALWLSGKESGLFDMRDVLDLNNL

These compounds were tested against E. coli DHPR enzyme (Escherichia coli, UniProt P04036) (assay: Dihydrodipicolinate reductase (DHPR) kinetic spectrophotometric assay, NADPH oxidation at 340 nm). Conditions: read-out: IC50 for DHPR; common ligand mimics/variants, FIG. 9, 11, 13, 14.

SMILES | IC50
Cc1[nH]c(-c2ccc(-c3cccc(C(=O)O)c3)o2)nc1-c1ccccc1 | 45 µM
O=C(O)c1ccc(-c2ccc(-c3nc4ccccc4[nH]3)o2)cc1 | 32 µM
Cc1[nH]c(-c2ccc(-c3ccc(C(=O)O)cc3)o2)nc1-c1ccccc1 | > 100 µM
